Measurements published in patent publication US8722910B2, “Diyne compositions” (Evolva AG, priority 2009, dated 2014).

Tested on: C. albicans
Test: Fatty acid competition (antagonism) in 96-well plates
Conditions: 48 h

## O=C([O-])CCCCCCC/C=C\C#CC#Cc1ccco1.[K+] [Compound IV″, potassium (Z)-14-(furan-2-yl)tetradeca-9-en-11,13-diynoate]
  effect of oleic acid / stearic acid on susceptibility: oleic acid (but not stearic acid) had an antagonistic effect
